Experimental data: PubChem BioAssay AID1259414 (Drosophila RNAi Screening Center, 2018)
The screen tested about 24,000 reagents; below is a random part of those with a known target gene and a result. Over the whole deposit, about 1,210 (5%) got an active call. 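Inactive calls also include excluded dsRNAs with several or no targets, genes unexpressed in JW18, and well A1, regardless of score.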 A number with no mark means an inactive call. The numbers tell different reagents against one gene apart.

- Test: 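Fly genes that alter Wolbachia amount inside host cells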 (primary screen)
- Cells: Drosophila JW18 cells infected with Wolbachia
- Reagent: long dsRNA against Drosophila genes, 0.25 µg dsRNA per well of a 384-well plate
- Duration: 5 days
- Treatment: cells persistently infected with Wolbachia before knock-down; no added drug
- Read-out: 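Automated imaging of bacterial rRNA staining divided by host cell count, reported as plate-normalised robust z-score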
- Reading the numbers: Wolbachia per cell robust z: higher = more Wolbachia per host cell than the plate typical
- Active means: 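Hit when robust z is 1.5 or more, or -1.5 or less, in at least two of three replicates; excludes dsRNAs with several or no targets, genes not expressed in JW18 and well A1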

gene knocked down	reagent	Wolbachia per cell robust z, rep 1	Wolbachia per cell robust z, rep 2	Wolbachia per cell robust z, rep 3
pnt (GeneID 42757)	1	0.228	1.41	0.141
pnt (GeneID 42757)	2	0.534	0.285	1.85
mt:srRNA (GeneID 19893562)	1	-1.49	-0.38	0.302
Art9 (GeneID 41698)	1	-0.407	-0.564	0.55
PolE4 (GeneID 37560)	1	-1.55 (active)	-0.97	-9.16
CG8726 (GeneID 35758)	1	0.0587	0.533	1.03
CG8726 (GeneID 35758)	2	0.872	-0.00229	0.459
CG15894 (GeneID 31574)	1	0.944	-0.136	-1.12
Eip63F-1 (GeneID 47878)	1	0.678	0.39	-0.293
Eip63F-1 (GeneID 47878)	2	-0.598	-0.358	-0.323
CG6013 (GeneID 42286)	1	0.0989	-0.198	2.35
CG6013 (GeneID 42286)	2	0.275	-0.36	-0.648
CG6891 (GeneID 32865)	1	-0.186	-9.35	-1.16
CG6891 (GeneID 32865)	2	-0.516	-0.0424	-1.72
AOX2 (GeneID 41895)	1	0.0944	0.449	0.226
Rab3GAP1 (GeneID 33338)	1	1.4	0.529	0.675
Rab3GAP1 (GeneID 33338)	2	-0.215	0.0271	-0.787
Rab3GAP1 (GeneID 33338)	3	1.03	0.25	1.12
ITP (GeneID 37921)	1	-0.411	0.365	-0.275
Rca1 (GeneID 33959)	1	2.69 (active)	4.54	5.7
Nplp1 (GeneID 38003)	1	0.751	-0.138	0.383
CG16721 (GeneID 31520)	1	1.49	0.704	1.13
SmydA-7 (GeneID 36916)	1	0.128	-1.12	-0.0607
Cdk1 (GeneID 34411)	1	5.61 (active)	6.41	7.26
Cdk1 (GeneID 34411)	2	0.994	1.6	0.851
CG12075 (GeneID 31815)	1	0.111	-0.424	-0.631
CG12075 (GeneID 31815)	2	-0.896	-0.022	-0.0967
CG5810 (GeneID 42513)	1	0.223	-0.988	0.563
CG5810 (GeneID 42513)	2	-0.986	-0.609	-1.06

The list goes on (2 carried over from the part before).
gene knocked down	reagent	Wolbachia per cell robust z, rep 1	Wolbachia per cell robust z, rep 2	Wolbachia per cell robust z, rep 3
CG5810 (GeneID 42513)	1	0.223	-0.988	0.563
CG5810 (GeneID 42513)	2	-0.986	-0.609	-1.06
Gr28b (GeneID 117496)	1	0.439	3.76	0.00425
Gr28b (GeneID 117496)	2	0.0905	0.852	1.46
Gr28b (GeneID 117496)	3	-1.83	-1.11	-0.747
Or85d (GeneID 41011)	1	-5.85	-1.06	0.23
Or85d (GeneID 41011)	2	0.059	0.177	1.54
Zaf1 (GeneID 41394)	1	0.28	0.236	0.966
CG12483 (GeneID 50161)	1	-0.184	0.801	-0.109
Cngl (GeneID 32468)	1	-5.54	0.815	-0.106
Cngl (GeneID 32468)	2	1.8	2.49	2.12
Cngl (GeneID 32468)	3	-0.12	0.314	0.0181
Cngl (GeneID 32468)	4	0.13	0.472	-0.748
zen2 (GeneID 40827)	1	0.874	0.552	0.0586
zen2 (GeneID 40827)	2	-0.00659	-0.45	-0.0174
CG5276 (GeneID 41373)	1	-0.0959	-3.15	-0.0147
CG5276 (GeneID 41373)	2	-0.547	1.06	0.632
Rtca (GeneID 31175)	1	1.13	0.0898	1.6
Arc2 (GeneID 36597)	1	0.832	-0.132	0.15
Arc2 (GeneID 36597)	2	-1.56 (active)	-2.23	-0.315
